Assay results as given in PubChem BioAssay AID504423 (Broad Institute, 2011).
The list shows a part of the results, in another mix than the full data. Some structures show a salt or complex split into parts, the way the source records it. Active and inactive are the calls of the source.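 Rule for the calls: active = highest replicate inhibition at or above 60% at 9 µM, even if other replicates fall short; inactive = all replicates below 60% inhibition.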

tested on: Kaposi's sarcoma herpesvirus LANA C-terminal domain (residues 932-1162) DNA binding; assay: inhibitors of KSHV C-LANA binding to DNA, primary screen, biochemical, fluorescence polarization, FAM-LBS DNA, MBP-C-LANA, single point (AID 504423); details: at 9 µM, active compounds read high;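 note: 0% = neutral control wells and 100% = 4 µM acridine orange control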

Row | Structure (SMILES) | inhibition
1 | COc1ccc(NP(C)(=O)Oc2ccccc2OC)cc1 (stereo not given) | inactive: -0.884%
2 | CN(C)CCOC(=O)C(O)(c1ccccc1)C1CCCCC1 (stereo not given) | inactive: 0.802%
3 | COc1ccc(OP(C)(=O)Nc2cccc(Br)c2)cc1 (stereo not given) | inactive: 0.279%
4 | Cc1c(C(c2ccc3c(c2)OCO3)c2c(C)n(C)n(-c3ccccc3)c2=O)c(=O)n(-c2ccccc2)n1C.O=[N+]([O-])c1cc([N+](=O)[O-])c(O)c([N+](=O)[O-])c1 | inactive: -0.0427%
5 | Cc1cc(-c2cccc3ccccc23)c(C)cn1.O=[N+]([O-])c1cc([N+](=O)[O-])c(O)c([N+](=O)[O-])c1 | inactive: 0.304%
6 | O=[N+]([O-])c1cc([N+](=O)[O-])c(NCC2CCS(=O)(=O)C2)c([N+](=O)[O-])c1 (stereo not given) | inactive: -0.234%
7 | O=[N+]([O-])c1ccc(OP2(=O)COCCO2)cc1 (stereo not given) | inactive: -0.717%
8 | CCOP(C)(=S)SCC(=O)NC(C)(CC)C(=O)O (stereo not given) | inactive: -1.69%
9 | CP(=O)(Nc1ccc(SC(F)(F)F)cc1)Oc1ccc(F)cc1 (stereo not given) | inactive: -1.18%
10 | Cc1ccccc1NP(C)(=O)Nc1ccccc1C | inactive: -2.07%
11 | CP(=O)(Nc1ccc2c(c1)OCCO2)Oc1ccccc1 (stereo not given) | inactive: -0.91%
12 | CC(C)c1ccc(OP(C)(=O)Nc2ccc(SC(F)(F)F)cc2)cc1 (stereo not given) | inactive: 0.246%
13 | CP(=O)(Nc1ccccc1F)Oc1ccccc1 (stereo not given) | inactive: -1.24%
14 | COc1ccc2c(c1O)-c1c(O)c(OC)cc3c1[C@H](C2)[N+](C)(C)CC3.O=[N+]([O-])c1cc([N+](=O)[O-])c([O-])c([N+](=O)[O-])c1[O-] | inactive: 5.41%
15 | O=C(OCCN1CCN(CCOCc2ccccc2)CC1)C(O)(c1ccccc1)c1ccccc1 | inactive: 0.268%
16 | O=C(OC1CN2CCC1CC2)c1ccc([N+](=O)[O-])cc1 (stereo not given) | inactive: -1.25%
17 | COc1ccc(OP(C)(=O)Nc2ccc(SC(F)(F)F)cc2)cc1 (stereo not given) | inactive: -0.472%
18 | CCOC(=O)c1ccc(NP(C)(=O)Oc2ccc(F)cc2)cc1 (stereo not given) | inactive: -0.393%
19 | O=[N+]([O-])c1cc([N+](=O)[O-])c(OC2CCCCC2O)c([N+](=O)[O-])c1 (stereo not given) | inactive: 1.09%
20 | CCCCCOc1ccc(NP(C)(=O)Oc2ccc(Cl)cc2Cl)cc1 (stereo not given) | inactive: -0.819%
21 | CP(=O)(Nc1ccccc1)Oc1ccc(F)cc1 (stereo not given) | inactive: 0.582%
22 | CCN(CC)CCCOC(=O)C(O)(c1ccccc1)C1CCCCC1 (stereo not given) | inactive: -1.5%
23 | Cc1c([N+](=O)[O-])cc([N+](=O)[O-])c(Br)c1[N+](=O)[O-] | inactive: 0.322%

Row | Structure (SMILES) | inhibition
24 | COc1ccc(OP(C)(=O)Nc2ccccc2Br)cc1 (stereo not given) | inactive: 1.86%
25 | COc1ccccc1OP(C)(=O)Nc1ccc(C)c(C)c1 (stereo not given) | inactive: 0.664%
26 | Cc1cc(C)cc(OP(C)(=O)Nc2cccc(C(F)(F)F)c2)c1 (stereo not given) | inactive: 0.984%
27 | O=C1C(O)=C([N+](=O)[O-])C(=O)C(O)=C1[N+](=O)[O-] | inactive: 40.3%
28 | CP(=O)(Nc1ccc(Cl)cc1Cl)Oc1ccccc1 (stereo not given) | inactive: 1.12%
29 | CCCCCCCCCCCCCCCC1C[N+](C)(C)CCOP(C)(=O)O1 (stereo not given) | inactive: -1.76%
30 | CP(=O)(OCCOc1ccccc1)OCCOc1ccccc1 | inactive: 0.488%
31 | CN(C)CCOC(=O)C(O)(c1ccccc1)C1CCCC1 (stereo not given) | inactive: 1.62%
32 | COc1ccc(OP(C)(=O)Nc2ccccn2)cc1 (stereo not given) | inactive: 0.996%
33 | COc1ccccc1OP(C)(=O)Nc1ccc(Br)cc1 (stereo not given) | inactive: -0.651%
34 | CCc1ccc(OP(C)(=O)O)cc1 | inactive: 0.429%
35 | COc1ccccc1OP(C)(=O)Nc1ccc(C)cc1C (stereo not given) | inactive: -0.486%
36 | CP(=O)(Nc1ccccn1)Oc1ccccc1 (stereo not given) | inactive: -2.05%
37 | Cc1c(NP(C)(=O)Oc2ccc(C(C)C)cc2)c(=O)n(-c2ccccc2)n1C (stereo not given) | inactive: 2.21%
38 | O=[N+]([O-])c1cc([N+](=O)[O-])c(Nc2ccccn2)c([N+](=O)[O-])c1 | inactive: -2.97%
39 | CCc1ccc(OP(C)(=O)Nc2cccnc2)cc1 (stereo not given) | inactive: -2.99%
40 | CP(=O)(Oc1ccccc1)N1CCOC1=O (stereo not given) | inactive: 1.47%
41 | O=C(OCCCN1CCCC1)C(O)(c1ccccc1)C1CCCCC1 (stereo not given) | inactive: -0.87%
42 | COc1ccccc1OP(C)(=O)Nc1c(C)n(C)n(-c2ccccc2)c1=O (stereo not given) | inactive: 1.29%
43 | COc1ccc(OP(C)(=O)Nc2ccc(Br)cc2)cc1 (stereo not given) | inactive: 1.35%
44 | CCN(CC)CC(O)COC(=O)C(O)(c1ccccc1)C1CCCCC1 (stereo not given) | inactive: -1.62%
45 | CN(C)C(=O)c1c([N+](=O)[O-])cc([N+](=O)[O-])cc1[N+](=O)[O-] | inactive: -1.79%
46 | CP(=O)(Nc1ccc(Cl)cc1)Oc1ccc(F)cc1 (stereo not given) | inactive: 0.237%

Row | Structure (SMILES) | inhibition
47 | COc1ccccc1OP(C)(=O)Nc1ccccc1Br (stereo not given) | inactive: -59.1%
48 | CC(C)(C)c1ccc(OP(C)(=O)O)cc1 | inactive: -2.16%
49 | CP(=O)(OC12CC3CC(CC(C3)C1)C2)OC12CC3CC(CC(C3)C1)C2 | inactive: -0.897%
50 | CCOC(=O)c1ccc(NP(C)(=O)Oc2ccc(Cl)cc2)cc1 (stereo not given) | inactive: -1.08%
51 | COc1ccccc1OP(C)(=O)Nc1ccccc1 (stereo not given) | inactive: -0.802%
52 | CP(=O)(Nc1ccccc1Br)Oc1ccccc1 (stereo not given) | inactive: -0.514%
53 | CP(=S)(Nn1cnnc1)Oc1ccccc1 (stereo not given) | inactive: 8.51%
54 | Cc1cc(C)cc(OP(C)(=O)Nc2ccc(SC(F)(F)F)cc2)c1 (stereo not given) | inactive: -1.72%
55 | CP(=O)(NC(=O)Nc1ccccc1)Oc1ccccc1 (stereo not given) | inactive: -0.0325%
56 | CCc1ccc(OP(C)(=O)N2CCN(c3ccc([N+](=O)[O-])cc3)CC2)cc1 (stereo not given) | inactive: 5.1%
57 | CP(=O)(Oc1ccccc1)OC(c1ccccc1)C(F)(F)F (stereo not given) | inactive: 0.645%
58 | Cc1cccc(C)c1OP(C)(=O)Nc1ccc(SC(F)(F)F)cc1 (stereo not given) | inactive: -0.74%
59 | CP(=O)(Nc1ccccn1)Oc1ccc(Cl)cc1 (stereo not given) | inactive: 0.0655%
60 | CCOP(C)(=S)SCC(=O)NC(C)C(=O)O (stereo not given) | inactive: -0.284%
61 | CCOC(=O)c1ccc(NP(C)(=O)Oc2ccc(OC)cc2)cc1 (stereo not given) | inactive: -5.98%
62 | CCN(CC)CCCOC(=O)C(O)(c1ccccc1)c1ccccc1 | inactive: 1.71%
63 | Cc1cccc(C)c1OP(C)(N)=O (stereo not given) | inactive: -2.5%
64 | CC(C)(C)c1ccc(OP(C)(=O)Nc2ccc(SC(F)(F)F)cc2)cc1 (stereo not given) | inactive: 0.583%
65 | O=[N+]([O-])c1ccc2c(c1)C=Nc1ccccc1O2 | inactive: 0.359%
66 | O=[N+]([O-])c1cc([N+](=O)[O-])c(Nc2cccnc2)c([N+](=O)[O-])c1 | inactive: -0.946%
67 | COc1ccc(OP(C)(=O)Nc2cccc(F)c2)cc1 (stereo not given) | inactive: -1.66%
68 | COc1ccccc1OP(C)(=O)Nc1cc(Cl)ccc1C (stereo not given) | inactive: -0.384%
69 | Cc1cc(C)cc(OP(C)(N)=O)c1 (stereo not given) | inactive: -0.492%

Row | Structure (SMILES) | inhibition
70 | CCOC(=O)c1ccc(NP(C)(=O)Oc2ccccc2)cc1 (stereo not given) | inactive: 0.39%
71 | Cc1ccc(NP(C)(=O)Oc2ccccc2)c(C)c1 (stereo not given) | inactive: -2.69%
72 | COc1ccccc1OP(C)(=O)Nc1ccc(C)cc1 (stereo not given) | inactive: 0.919%
73 | O=C(O)c1cccc(Nc2c([N+](=O)[O-])cc([N+](=O)[O-])cc2[N+](=O)[O-])c1 | inactive: -1.6%
74 | CC1=NCCc2c1[nH]c1ccccc21.O=[N+]([O-])c1cc([N+](=O)[O-])c(O)c([N+](=O)[O-])c1 | inactive: -0.537%
75 | Cc1cc(C)cc(OP(C)(=O)Nc2ccc(C)cc2C)c1 (stereo not given) | inactive: 2.03%
76 | CCOC(=O)c1ccc(NP(C)(=O)Oc2cc(C)cc(C)c2)cc1 (stereo not given) | inactive: 1.17%
77 | COc1ccccc1OP(C)(=O)Nc1cccc(Br)c1 (stereo not given) | inactive: -0.139%
78 | Cc1cc(C)cc(OP(C)(=O)Nc2ccccn2)c1 (stereo not given) | inactive: 0.375%
79 | CP(=O)(Nc1cccc(Br)c1)Oc1ccccc1 (stereo not given) | inactive: -0.449%
80 | Cc1ccc(C)c(NP(C)(=O)Oc2ccccc2)c1 (stereo not given) | inactive: -2.25%
81 | O=[N+]([O-])c1cc([N+](=O)[O-])c(-n2nnc3ccccc32)c([N+](=O)[O-])c1 | inactive: -0.234%
82 | Cc1nc2ccc3ccccc3c2s1.O=[N+]([O-])c1cc([N+](=O)[O-])c(O)c([N+](=O)[O-])c1 | inactive: -1.06%
83 | O=[N+]([O-])c1cc([N+](=O)[O-])c(-c2cnn(-c3ccccc3)c2)c([N+](=O)[O-])c1 | inactive: -0.179%
84 | CCOC(=O)C(CC)C1=NC(C)(C)Cc2ccccc21.O=[N+]([O-])c1cc([N+](=O)[O-])c(O)c([N+](=O)[O-])c1 (stereo not given) | inactive: -0.859%
85 | CC1=C2N=C(C=C3N=C(C(C)=C4[N-][C@@](C)([C@@H]5N=C1[C@](C)(CCC(=O)NC[C@@H](C)OP(=O)([O-])O[C@H]1[C@@H](O)[C@@H](n6cnc7cc(C)c(C)cc76)O[C@@H]1CO)[C@H]5CC(N)=O)[C@@](C)(CC(N)=O)[C@@H]4CCC(N)=O)[C@@](C)(CC(N)=O)[C@@H]3CCC(N)=O)C(C)(C)[C@@H]2CCC(N)=O.[C-]#N.[Co+3] | inactive: 3.41%
86 | O=[N+]([O-])c1cc([N+](=O)[O-])c(Nc2nnnn2CCO)c([N+](=O)[O-])c1 | inactive: -1.02%
87 | CCCOc1ccc(NP(C)(=O)Oc2ccc(Cl)cc2)cc1 (stereo not given) | inactive: 1%
88 | CP(=O)(Nc1ccc(SC(F)(F)F)cc1)Oc1ccccc1 (stereo not given) | inactive: 0.714%
89 | CN1CCCCC1COC(=O)C1(O)c2ccccc2CCc2ccccc21 (stereo not given) | inactive: 0.71%
90 | COc1ccccc1OP(C)(=O)Nc1c(C)cccc1C (stereo not given) | inactive: -1.18%
